Common to all, as to type: functional, organism-based
The subject of test [1] is Acinetobacter baumannii. Kind of test: Increase of pmrA gene expression in Acinetobacter baumannii MAC101 harboring PmrA P102H, PmrB A262P mutant by RT-PCR analysis relative to 16S rRNA expression.
The subject of test [2] is Acinetobacter baumannii. Kind of test: Increase of pmrA gene expression in Acinetobacter baumannii MAC102 harboring PmrB A227V mutant by RT-PCR analysis relative to 16S rRNA expression.
Test [3] concerns Acinetobacter baumannii. The experiment in a line: Increase of pmrA gene expression in Acinetobacter baumannii MAC201 harboring PmrB T13N, PmrB P233S mutant by RT-PCR analysis relative to 16S rRNA expression.
Test [4] deals with Acinetobacter baumannii. The experiment in a line: Increase of pmrA gene expression in Acinetobacter baumannii MAC203 harboring PmrB T13N, PmrB P233S, PmrB (411-444) deletion mutant by RT-PCR analysis relative to 16S rRNA expression.
Test [5] concerns Acinetobacter baumannii. The experiment in a line: Antibacterial activity against Acinetobacter baumannii MAC203 harboring PmrB T13N, PmrB P233S, PmrB (411-444) deletion mutant assessed as bacterial survival at pH 5.5 after 1 hr.
Test [6] deals with Acinetobacter baumannii. Kind of test: Antibacterial activity against Acinetobacter baumannii MAC203 harboring PmrB T13N, PmrB P233S, PmrB (411-444) deletion mutant assessed as bacterial survival at pH 7.7 after 1 hr.
Test [7] concerns Acinetobacter baumannii. The experiment in a line: Antibacterial activity against Acinetobacter baumannii MAC203 harboring PmrB T13N, PmrB P233S, PmrB (411-444) deletion mutant assessed as bacterial survival after 1 hr in absence of ferric chloride.
Test [8] has as its system Acinetobacter baumannii. Kind of test: Antibacterial activity against Acinetobacter baumannii MAC203 harboring PmrB T13N, PmrB P233S, PmrB (411-444) deletion mutant assessed as bacterial survival after 1 hr in presence of ferric chloride.

Activity calls are given as the source filed them. The calls are words filed in the database; no cut-off is given here.

With COLISTIN SULFATE, the fold change (FC) with Acinetobacter baumannii [1], with Acinetobacter baumannii [2] and in the test with Acinetobacter baumannii [3] was 5 in each case. Also, in the test with Acinetobacter baumannii [4], the outcome was inactive. The Survival is 68% in the test with Acinetobacter baumannii [5], under 1% with Acinetobacter baumannii [6], 0.1% with Acinetobacter baumannii [7] and 15% in the test with Acinetobacter baumannii [8].

The values are drawn from ChEMBL document CHEMBL1687735, “Resistance to colistin in Acinetobacter baumannii associated with mutations in the PmrAB two-component system” (Antimicrob Agents Chemother, 2009).
